# Sequence variants of PSTVd loop 27 after infection

PSTVd intermediate strain, loop 27: wild type UUUUCA, pool pattern UNNNNA; 5' to 3', with the closing base pair.

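Three N. benthamiana plants were inoculated with the whole mutant pool. Progeny were sequenced from the inoculated region (day 5), the margin of the inoculated leaf (day 10) and systemic leaves (day 12).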

Numbers give reads per thousand; 0 = not seen among the reads, higher = more abundant.
Each site shows the three plants.
"Pool" is the share in the plasmid pool used as inoculum, on the same scale.
The inoculated region was read from the minus strand, the other sites from the plus strand.
Samples held 30,013 to 65,426 reads, so the smallest values rest on one or two reads.

| sequence | pool | inoculated region | leaf margin | systemic leaves |
|---|---|---|---|---|
| UACUGA | 5.98 | 6.42 6.68 6.48 | 0.766 0.151 0.155 | 0.0322 0.0153 0.0787 |
| UAGCCA | 3.14 | 1.18 1.08 0.983 | 0 0.0907 0.207 | 0 0.0306 0.0590 |
| UGGGGC | 0.584 | 0.0705 0.0982 0.113 | 0 0.0302 0.362 | 0.0161 0 0 |
| UGCAUA | 4.58 | 4.00 4.94 3.52 | 0 0.0605 0.181 | 0.0161 0.0153 0.0984 |
| UACGUA | 2.62 | 0.741 0.769 0.832 | 0 0.121 0 | 0 0.0306 0 |
| UGAGUA | 5.19 | 5.64 6.37 6.99 | 2.73 0.151 0.258 | 0.0482 0 0.236 |
| UCCUUA | 3.52 | 1.50 1.75 1.57 | 0.0333 0.0605 0.0258 | 0.0322 0 0 |
| GAUAAA | 0.0136 | 0 0 0 | 0 0 0 | 0 0 0 |
| UCUACA | 0.394 | 0.582 0.458 0.794 | 0 0.0605 0 | 0.0161 0.0611 0.0197 |
| UAAUAA | 6.22 | 2.95 3.40 2.70 | 0.666 0.454 0.0775 | 0.0804 0.138 0.157 |
| UGCAAA | 4.12 | 0.705 1.31 1.02 | 0.0333 0.151 0.853 | 0.0322 0.0306 0.0590 |
| AUAUUA | 0.0136 | 0 0 0 | 0 0 0 | 0 0 0 |
| UACCCA | 1.24 | 0.176 0.376 0.302 | 0 0.0302 0.0258 | 0 0 0 |
| UCAUUA | 4.43 | 2.33 2.55 2.17 | 0.0666 0.726 0.129 | 0.0482 0 0.0393 |
| AUCUAC | 0.122 | 0 0.0164 0 | 0 0 0 | 0 0 0 |
| UAACCA | 2.31 | 0.847 0.704 0.510 | 0 0.0907 0.284 | 0.0322 0.183 0 |
| UUAUUA | 6.41 | 12.6 11.1 12.3 | 2.87 1.15 0.258 | 0.0965 0.183 0.177 |
| UAAUUC | 0.136 | 0.0529 0.0491 0.0378 | 0 0 0 | 0 0 0 |
| UCACAA | 2.11 | 0.670 0.998 0.813 | 0.100 0.0302 0.129 | 0 0 0.0197 |
| UUUUCA | 39.4 | 155 124 130 | 823 907 920 | 805 787 933 |
| UACAUA | 1.33 | 0.247 0.393 0.208 | 0 0 0 | 0 0 0 |
| UCUAUA | 2.65 | 0.511 1.05 0.680 | 0.0666 0.0907 0.0517 | 0 0.0153 0.0393 |
| UCUGUA | 5.45 | 2.01 2.26 1.74 | 0.0666 0.272 0.0517 | 0.0161 0.122 0.0393 |
| UGAAAA | 3.35 | 1.76 1.82 2.59 | 0.233 0.181 0.0517 | 0 0.0611 0.0590 |
| UUCAUA | 2.92 | 2.01 1.70 1.30 | 0.0333 0.0605 0.233 | 0 0.0153 0.0197 |
| UGGCUA | 5.12 | 2.50 3.35 3.14 | 0.0333 0.454 0.698 | 0.0161 0 0.0197 |
| UACGAA | 0.828 | 0.229 0.245 0.0945 | 0 0.454 0 | 0 0.0153 0.0393 |
| UCGACA | 1.67 | 2.56 2.93 3.16 | 0.366 0.181 0.0258 | 0 0.0153 0.118 |
| UACCUA | 1.82 | 1.13 1.29 1.04 | 0 0.363 0 | 0 0 0.0197 |
| UUCAAA | 3.29 | 1.27 1.49 1.40 | 0 0.151 0.0517 | 0 0.0153 0.0590 |
| UUCUAA | 3.75 | 2.89 3.47 2.61 | 0.0333 0.151 0.0517 | 0.0161 0.0459 0.0984 |
| UCCGCA | 0.978 | 0.194 0.180 0.151 | 0 0.0302 0 | 0 0 0 |
| UGGGAC | 0.0543 | 0 0 0.0378 | 0 0 0 | 0 0 0 |
| UCCCCA | 0.543 | 0.0176 0.0491 0.0189 | 0 0 0.620 | 0 0 0.0197 |
| UUCGAA | 2.49 | 1.78 1.65 1.47 | 0 0.151 0 | 0.0161 0.122 0.0393 |
| GUGGUA | 0.0272 | 0.0176 0 0.0378 | 0 0 0 | 0 0 0 |
| UGGUUA | 5.76 | 10.3 11.4 10.4 | 2.40 0.605 0.491 | 0.0643 0.245 0.374 |
| UCCACA | 0.557 | 0.494 0.655 0.510 | 0.0333 0 0.0258 | 0.0161 0.0153 0.0590 |
| UCCUCA | 0.530 | 1.15 1.54 0.832 | 0 0.0907 0.0517 | 0.386 0 0.0197 |
| UCUCCA | 2.28 | 1.68 2.03 1.53 | 0.0666 0.0907 0 | 0.0161 0.0306 0.0393 |
| UACACA | 0.421 | 0.600 0.916 0.775 | 0 0.0302 0 | 0 0 0 |
| UGAGAA | 4.58 | 0.899 1.11 0.888 | 0.0333 0.151 0.0775 | 0.0161 0.0153 0.0393 |
| UCCCUA | 2.97 | 1.09 1.52 1.32 | 0.0666 0.605 0 | 0.0161 0.0153 0.0393 |
| UUGGCA | 3.90 | 2.10 2.52 1.81 | 0.500 0.423 0.439 | 0.0322 0.0764 0.0393 |
| UCGCCA | 2.40 | 0.600 0.524 0.454 | 0.0333 0.514 0 | 0.0161 0 0.0393 |
| UAGCUA | 4.18 | 2.13 1.69 1.61 | 0.300 0.0302 0 | 0.0161 0.0917 0.0393 |
| GUUUUA | 0.0136 | 0 0 0 | 0 0 0 | 0 0 0 |
| UGCCCA | 5.11 | 2.80 3.04 2.51 | 0 0.121 0.336 | 0.0161 0.0153 0.0590 |
| AGCCAA | 0.0136 | 0 0 0 | 0 0 0 | 0 0 0 |
| UCUUGA | 4.74 | 5.38 5.92 6.41 | 0.666 0.302 0.103 | 0.0965 6.86 0.157 |
| UCCCGA | 1.59 | 0.406 0.442 0.284 | 0 0.0605 0.310 | 0.0161 0 0 |
| UCGCAA | 3.46 | 1.32 1.64 1.17 | 0.100 0.151 0 | 0.0161 0.0153 0.0197 |
| UCCCAA | 3.54 | 3.65 3.32 2.34 | 0.200 0.181 0.0258 | 0.0322 0.0153 0 |
| UUUCCA | 1.92 | 0.441 0.540 0.643 | 0.600 0.181 0.258 | 0.225 0.245 0.295 |
| GAUUGA | 0.0136 | 0 0 0 | 0 0 0 | 0 0 0 |
| UUGCCA | 1.47 | 0.705 0.638 0.454 | 0.0333 0.0605 0.0258 | 0.0482 0.0153 0.0393 |
| UUCCUA | 3.56 | 1.55 1.34 1.21 | 0.0333 0.121 0.258 | 0 0.0306 0 |
| UUGGGA | 8.04 | 2.19 2.90 1.70 | 0.100 0.574 0.413 | 0 0.0153 0.0197 |
| UUACGA | 3.16 | 1.23 1.06 0.775 | 0.0333 0.454 0.0258 | 0.0322 0.122 0.0197 |
| UAUACA | 0.0679 | 0.0882 0.0491 0.0567 | 0.133 0.151 0.0517 | 0.0482 0.0611 0 |
| UGGGGA | 7.59 | 2.77 2.72 2.10 | 0.167 0.212 0.284 | 0.0322 0.0153 0.0590 |
| AGGGUA | 0.0136 | 0 0 0 | 0 0 0 | 0 0 0 |
| UUGAAA | 2.73 | 2.54 2.85 2.85 | 0.833 0.181 0.0775 | 0.0482 0.0611 0.0787 |
| UUCGUA | 5.69 | 3.58 4.03 4.29 | 0.0333 0.151 0.0258 | 0.0161 0.0459 0.0590 |
| UUGGUG | 0.0136 | 0 0 0 | 0 0 0 | 0 0 0 |
| AAGUCA | 0.0136 | 0 0.0164 0 | 0 0 0 | 0 0 0 |
| UGCGGU | 0.0136 | 0 0 0 | 0 0 0 | 0 0 0 |
| AAAAUA | 0.0136 | 0 0 0 | 0 0 0 | 0 0 0 |
| UAGGUA | 7.21 | 6.33 7.18 7.22 | 0.866 0.393 0.129 | 0.0161 0.245 0.0590 |
| UUGAUA | 4.37 | 5.98 6.46 7.37 | 1.23 0.484 0.0258 | 0.193 0.260 0.118 |
| UUAAGA | 1.92 | 1.09 1.01 0.983 | 0.400 0.212 0.207 | 0.0322 0.153 0.0197 |
| UACCAC | 0.435 | 0.406 0.393 0.359 | 0.100 0.0302 0 | 0.0161 0 0 |

A selection of 7 entries from above:

sequence	pool	inoculated region	leaf margin	systemic leaves
GUUUUA	0.0136	0 0 0	0 0 0	0 0 0
UUGCCA	1.47	0.705 0.638 0.454	0.0333 0.0605 0.0258	0.0482 0.0153 0.0393
GAUUGA	0.0136	0 0 0	0 0 0	0 0 0
UUCCUA	3.56	1.55 1.34 1.21	0.0333 0.121 0.258	0 0.0306 0
UAGCCA	3.14	1.18 1.08 0.983	0 0.0907 0.207	0 0.0306 0.0590
UCUCCA	2.28	1.68 2.03 1.53	0.0666 0.0907 0	0.0161 0.0306 0.0393
UGGGAC	0.0543	0 0 0.0378	0 0 0	0 0 0

Wild type was 39.4 per thousand in the pool and the most common sequence in every sample (inoculated region 155, 124, 130; leaf margin 823, 907, 920; systemic leaves 805, 787, 933).
The authors trace changes outside the varied positions to PCR and sequencing errors or to mutation in the plant; presence does not show that a variant is infectious alone.

The measurements come from Wu et al. 2024 (doi:10.1371/journal.ppat.1012142).